Sequence variants of PSTVd loop 15 after infection

Source: Wu et al. 2024 (doi:10.1371/journal.ppat.1012142), supplementary data.

The pool varies loop 15 of the PSTVd intermediate strain in the pattern GGAAACCGNNNNNNC; wild type is GGAAACCGCUACUAC (upper and lower strand joined, each 5' to 3', the first 7 letters being the upper strand, closing pairs included).

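Three N. benthamiana plants were inoculated with the whole mutant pool. Samples came from the inoculated region at 5 days, the leaf margin at 10 and upper systemic leaves at 12.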

Values are reads per thousand in the sample; higher means more abundant, 0 means not found. Each site shows the three plants. "Pool" is the share in the plasmid pool used as inoculum, on the same scale. The inoculated region was read from the minus strand, the other sites from the plus strand. Sequences that differ at fixed positions probably stem from PCR or sequencing errors, and defective variants can be carried along by functional ones.

With GGAAACCGUGUCACC (pool 0.240) the assay gave inoculated region 0.115 / 0.0643 / 0.0952; leaf margin 0.0162 / 0 / 0; systemic leaves 0 / 0 / 0.
With GGAAACCGUAACAGC (pool 0.256) the assay gave inoculated region 0.180 / 0.112 / 0.0952; leaf margin 0.0162 / 0 / 0.0200; systemic leaves 0.0161 / 0 / 0.
With GGAAACCGGGGAGUC (pool 0.304) the assay gave inoculated region 0.0983 / 0.0964 / 0.0952; leaf margin 0.0162 / 0 / 0.0200; systemic leaves 0.0161 / 0 / 0.
With GGAAACCGCGGAACC (pool 0.304) the assay gave inoculated region 0.197 / 0.0964 / 0.0571; leaf margin 0 / 0.0223 / 0; systemic leaves 0 / 0 / 0.
With GGAAACCGAGCGGUC (pool 0.224) the assay gave inoculated region 0.966 / 0.787 / 0.609; leaf margin 0 / 0.0223 / 0; systemic leaves 0 / 0 / 0.
With GGAAACCGAUCGAGC (pool 0.160) the assay gave inoculated region 0.164 / 0.0964 / 0.209; leaf margin 0.0162 / 0 / 0.0200; systemic leaves 0 / 0 / 0.
With GGAAACCGUUAGUCC (pool 0.240) the assay gave inoculated region 0.295 / 0.257 / 0.419; leaf margin 0.113 / 0.134 / 0.120; systemic leaves 0.0644 / 0.0605 / 0.0912.
With GGAAACCGCUCGCUC (pool 0.256) the assay gave inoculated region 0.131 / 0.129 / 0.228; leaf margin 0 / 0.0223 / 0.0200; systemic leaves 0 / 0 / 0.0228.
With GGAAACCGCCUAUUC (pool 0.272) the assay gave inoculated region 0.328 / 0.257 / 0.343; leaf margin 0.0970 / 0.111 / 0.0601; systemic leaves 0.0805 / 0 / 0.
With GGAAACCGCUAUCAC (pool 0.192) the assay gave inoculated region 0.295 / 0.273 / 0.343; leaf margin 0.0485 / 0.0668 / 0.120; systemic leaves 0.0161 / 0.0605 / 0.0456.
With GGAAACCGCCUUUGC (pool 0.256) the assay gave inoculated region 0.180 / 0.145 / 0.0190; leaf margin 0.0162 / 0 / 0; systemic leaves 0 / 0 / 0.
With GGAAACCGAUAGAGC (pool 0.208) the assay gave inoculated region 0.311 / 0.482 / 0.324; leaf margin 0.0970 / 0.178 / 0.200; systemic leaves 0.0483 / 0.0151 / 0.137.
With GGAAACCGGAAAGCC (pool 0.256) the assay gave inoculated region 0.0983 / 0.0482 / 0.114; leaf margin 0.0162 / 0 / 0.0200; systemic leaves 0 / 0 / 0.
With GGAAACCGGGUUGGC (pool 0.208) the assay gave inoculated region 0.0819 / 0.0803 / 0.152; leaf margin 0 / 0 / 0.0401; systemic leaves 0 / 0 / 0.
With GGAAACCGGUGGUGC (pool 0.256) the assay gave inoculated region 0.0655 / 0.0482 / 0.0952; leaf margin 0.0323 / 0 / 0.0200; systemic leaves 0.0161 / 0 / 0.
With GGAAACCGUUCUCUC (pool 0.192) the assay gave inoculated region 0.0983 / 0.0964 / 0.133; leaf margin 0.0162 / 0 / 0.0200; systemic leaves 0 / 0 / 0.
With GGAAACCGAUCGCUC (pool 0.208) the assay gave inoculated region 0.164 / 0.0161 / 0.0571; leaf margin 0 / 0 / 0.0601; systemic leaves 0 / 0 / 0.
With GGAAACCGUGUAGAC (pool 0.208) the assay gave inoculated region 0.115 / 0.112 / 0.152; leaf margin 0 / 0 / 0; systemic leaves 0 / 0 / 0.
With GGAAACCGAUGUUGC (pool 0.208) the assay gave inoculated region 0.164 / 0.0482 / 0.0952; leaf margin 0 / 0 / 0; systemic leaves 0 / 0 / 0.
With GGAAACCGACUGCAC (pool 0.272) the assay gave inoculated region 0.164 / 0.0803 / 0.0381; leaf margin 0 / 0 / 0; systemic leaves 0 / 0 / 0.
With GGAAACCGCUCAUUC (pool 0.224) the assay gave inoculated region 0.229 / 0.273 / 0.267; leaf margin 0.178 / 0.0668 / 0.0801; systemic leaves 0.0322 / 0 / 0.0228.

Extract of 3 entries:

| sequence | pool | inoculated region | leaf margin | systemic leaves |
|---|---|---|---|---|
| GGAAACCGGUGGUGC | 0.256 | 0.0655 / 0.0482 / 0.0952 | 0.0323 / 0 / 0.0200 | 0.0161 / 0 / 0 |
| GGAAACCGAUCGAGC | 0.160 | 0.164 / 0.0964 / 0.209 | 0.0162 / 0 / 0.0200 | 0 / 0 / 0 |
| GGAAACCGAGCGGUC | 0.224 | 0.966 / 0.787 / 0.609 | 0 / 0.0223 / 0 | 0 / 0 / 0 |

Wild type was 33.9 per thousand in the pool and the most common sequence in every sample (inoculated region 202, 200, 159; leaf margin 724, 746, 710; systemic leaves 856, 883, 880). Samples held 43,870 to 66,106 reads, so the smallest values rest on one or two reads.